Anti-infective test results gathered from many reports (values: NIAID ChemDB through PubChem).

All rows: tests in culture; organism: Mycobacterium avium complex; measure: MIC

Lines come from different laboratories, so protocols vary.

smiles,strain,value
NC[C@@H]1O[C@H](O[C@H]2[C@@H](O)[C@H](O[C@@H]3[C@@H](O)[C@H](N)C[C@H](N)[C@H]3O[C@H]3O[C@H](CO)[C@@H](O)C[C@H]3N)O[C@@H]2CO)[C@H](N)[C@@H](O)[C@@H]1O[C@H]1O[C@H](CO)[C@@H](O)[C@H](O)[C@@H]1O,Isolate 135,50 µg/mL
NC[C@@H]1O[C@H](O[C@H]2[C@@H](O)[C@H](O[C@@H]3[C@@H](O)[C@H](N)C[C@H](N)[C@H]3O[C@H]3O[C@H](CO)[C@@H](O)[C@H](O)[C@H]3N)O[C@@H]2CO)[C@H](N)[C@@H](O)[C@@H]1O,SK32/HIV+,6.25 µg/mL
O=C(O)c1cn(C2CC2)c2c(F)c(N3CCSCC3)c(F)cc2c1=O,1760694,32 µg/mL
CN[C@@H]1[C@H](O[C@H]2[C@H](O[C@H]3[C@H](O)[C@@H](O)[C@H](N=C(N)N)[C@@H](O)[C@@H]3N=C(N)N)O[C@@H](C)[C@]2(O)C=O)O[C@@H](CO)[C@H](O)[C@H]1O,Isolate 49,12.5 µg/mL
CC(C)N=c1cc2n(-c3ccc(Cl)cc3)c3ccccc3nc-2cc1Nc1ccc(Cl)cc1,733/HIV+,0.12 µg/mL
O=C(O)c1cn(C2CC2)c2c(F)c(N3CC4CCCC(C3)N4)c(F)cc2c1=O,1760694,4 µg/mL
NC[C@H]1O[C@H](O[C@H]2[C@H](O)[C@@H](O[C@H]3O[C@H](CO)[C@@H](O)[C@H](N)[C@H]3O)[C@H](N)C[C@@H]2N)[C@H](O)[C@@H](O)[C@@H]1O,Isolate 49,6.25 µg/mL
CCn1cc(C(=O)O)c(=O)c2cc(F)c(N3CCNCC3)nc21,CIPT 14031001,10 µg/mL
O=C(O)c1cn(C2CC2)c2c(F)c(N3CCC(N4CCCC4)C3)c(F)cc2c1=O,1988557,1 µg/mL
CO[C@H]1/C=C/O[C@@]2(C)Oc3c(C)c(O)c4c(O)c(c(/C=N/N5CCN(C/C=C/c6ccccc6)CC5)c(O)c4c3C2=O)NC(=O)/C(C)=C\C=C\[C@H](C)[C@H](O)[C@@H](C)[C@@H](O)[C@@H](C)[C@H](OC(C)=O)[C@@H]1C,PLR3,0.03 µg/mL
CN[C@@H]1[C@H](O[C@H]2[C@H](O[C@H]3[C@H](O)[C@@H](O)[C@H](N=C(N)N)[C@@H](O)[C@@H]3N=C(N)N)O[C@@H](C)[C@]2(O)C=O)O[C@@H](CO)[C@H](O)[C@H]1O,ATCC 13950,≤12.5 µg/mL
CC[C@@H](CO)NCCN[C@@H](CC)CO,13034 (serotype 18),6.25 µg/mL
CC[C@H]1OC(=O)[C@H](C)[C@@H](O[C@H]2C[C@@](C)(OC)[C@@H](O)[C@H](C)O2)[C@H](C)[C@@H](O[C@@H]2O[C@H](C)C[C@H](N(C)C)[C@H]2O)[C@](C)(OC)C[C@@H](C)C(=O)[C@H](C)[C@@H](O)[C@]1(C)O,1056,2 µg/mL
O=C(O)c1cn(C2CC2)c2c(F)c(N3CCC(n4ccnc4)C3)c(F)cc2c1=O,PI12/39,8 µg/mL
CC[C@H]1OC(=O)[C@H](C)[C@@H](O[C@H]2C[C@@](C)(OC)[C@@H](O)[C@H](C)O2)[C@H](C)[C@@H](O[C@@H]2O[C@H](C)C[C@H](N(C)C)[C@H]2O)[C@](C)(OC)C[C@@H](C)C(=O)[C@H](C)[C@@H](O)[C@]1(C)O,3211,4 µg/mL
CC[C@@H](CO)NCCN[C@@H](CC)CO,1124,8 µg/mL
NCC[C@H](O)C(=O)N[C@@H]1C[C@H](N)[C@@H](O[C@H]2O[C@H](CN)[C@@H](O)[C@H](O)[C@H]2O)[C@H](O)[C@H]1O[C@H]1O[C@H](CO)[C@@H](O)[C@H](N)[C@H]1O,LR25/HIV+,<0.61 µg/mL
CC1CN(c2c(F)cc3c(=O)c(C(=O)O)cn(C4CC4)c3c2F)CCN1,PI12/39,1 µg/mL
NC[C@@H]1O[C@H](O[C@H]2[C@@H](O)[C@H](O[C@@H]3[C@@H](O)[C@H](N)C[C@H](N)[C@H]3O[C@H]3O[C@H](CO)[C@@H](O)[C@H](O)[C@H]3N)O[C@@H]2CO)[C@H](N)[C@@H](O)[C@@H]1O,TMC 1467,0.19 µg/mL
CCn1cc(C(=O)O)c(=O)c2cc(F)c(N3CCNCC3)cc21,CIPT 140310023,40 µg/mL
CC1COc2c(N3CCN(C)CC3)c(F)cc3c(=O)c(C(=O)O)cn1c23,711/HIV-,>16 µg/mL
C[C@@H]1CN(c2c(F)c(N)c3c(=O)c(C(=O)O)cn(C4CC4)c3c2F)C[C@H](C)N1,1988557,1 µg/mL
NC[C@H]1O[C@H](O[C@H]2[C@H](O)[C@@H](O[C@H]3O[C@H](CO)[C@@H](O)[C@H](N)[C@H]3O)[C@H](N)C[C@@H]2N)[C@H](N)[C@@H](O)[C@@H]1O,Isolate 122,12.5 µg/mL
CN[C@@H]1[C@H](O[C@H]2[C@H](O[C@H]3[C@H](O)[C@@H](O)[C@H](N=C(N)N)[C@@H](O)[C@@H]3N=C(N)N)O[C@@H](C)[C@]2(O)C=O)O[C@@H](CO)[C@H](O)[C@H]1O,13016 (serotype 4),1.6 µg/mL
NCCC(O)C(N)CC(=O)NC1CNC(=O)C(C2CCN=C(N)N2)NC(=O)/C(=C/NC(N)=O)NC(=O)C(CO)NC(=O)C(CO)NC1=O,Isolate 93,25 µg/mL
NCC1CN(c2c(F)cc3c(=O)c(C(=O)O)cn(C4CC4)c3c2F)CC1c1ccccc1,1760694,16 µg/mL
CO[C@H]1/C=C/O[C@@]2(C)Oc3c(C)c(O)c4c(O)c(c(/C=N/N5CCN(C)CC5)c(O)c4c3C2=O)NC(=O)/C(C)=C\C=C\[C@H](C)[C@H](O)[C@@H](C)[C@@H](O)[C@@H](C)[C@H](OC(C)=O)[C@@H]1C,3217,0.5 µg/mL
CC[C@@H](CO)NCCN[C@@H](CC)CO,3350-4,3.8 µg/mL
O=C(O)c1cn(C2CC2)c2c(F)c(N3CCC(NC4CC4)C3)c(F)cc2c1=O,1760694,8 µg/mL
NCC[C@H](O)C(=O)N[C@@H]1C[C@H](N)[C@@H](O[C@H]2O[C@H](CN)[C@@H](O)[C@H](O)[C@H]2O)[C@H](O)[C@H]1O[C@H]1O[C@H](CO)[C@@H](O)[C@H](N)[C@H]1O,3214,4 µg/mL

4 of the rows above, restated:

smiles,strain,value
CN[C@@H]1[C@H](O[C@H]2[C@H](O[C@H]3[C@H](O)[C@@H](O)[C@H](N=C(N)N)[C@@H](O)[C@@H]3N=C(N)N)O[C@@H](C)[C@]2(O)C=O)O[C@@H](CO)[C@H](O)[C@H]1O,Isolate 49,12.5 µg/mL
O=C(O)c1cn(C2CC2)c2c(F)c(N3CCC(N4CCCC4)C3)c(F)cc2c1=O,1988557,1 µg/mL
NCC1CN(c2c(F)cc3c(=O)c(C(=O)O)cn(C4CC4)c3c2F)CC1c1ccccc1,1760694,16 µg/mL
CC1CN(c2c(F)cc3c(=O)c(C(=O)O)cn(C4CC4)c3c2F)CCN1,PI12/39,1 µg/mL